Laboratory results: patent publication US20220356229A1 (published 2022)
Like-named read-outs stand apart in the source and are kept apart here.

How the values were obtained:
WIV1 full length Spike = WIV1 full length Spike (WIV1); experiment: multiplexed bead assay, flow cytometry, antibody at […]
[1] = molecular target: T1, SARS-CoV-2 Spike (S) protein, wild type, full length (SARS-CoV-2, UniProt P0DTC2 14-1208); experiment: bead assay, flow cytometry
[2] = molecular target: T1, SARS-CoV-2 Spike (S) protein, wild …; experiment: bead assay, flow cytometry; remark: listed apart in the source
[3] = molecular target: T1, SARS-CoV-2 Spike (S) protein, wild …; experiment: bead assay, flow cytometry; remark: listed apart in the source
[4] = molecular target: T1, SARS-CoV-2 Spike (S) protein, wild …; experiment: bead assay, flow cytometry; remark: listed apart in the source
[5] = molecular target: T1, SARS-CoV-2 Spike (S) protein, wild …; experiment: bead assay, flow cytometry; remark: listed apart in the source
[6] = molecular target: T1, SARS-CoV-2 Spike (S) protein, wild …; experiment: bead assay, flow cytometry; remark: listed apart in the source

| Binder | median fluorescence intensity, fold over isotype control (WIV1 full length Spike) [fold over isotype] | bead binding signal (fold over isotype) [1] [fold over isotype] | bead binding signal (fold over isotype) [2] [fold over isotype] | bead binding signal (fold over isotype) [3] [fold over isotype] | bead binding signal (fold over isotype) [4] [fold over isotype] | bead binding signal (fold over isotype) [5] [fold over isotype] | bead binding signal (fold over isotype) [6] [fold over isotype] |
| --- | --- | --- | --- | --- | --- | --- | --- |
| mAb 1015 (antibody, V domains shown) VH: EVQLVESGGGLVQPGGSLRLSCAASGFTFSSYWMHWVRQAPGKGLVWVSHINSDGSSTSYADSVKGRFTISRDNAKNTLYLQMNSLRAEDTAVYYCARGLRYFDLDVWGQGTTVTVSS VL: QSVLTQPPSVSEAPRQRVTISCSGSSSNIGNNAVNWYQQLPGKAPKLLIFYDDLLPSGVSDRFSGSKSGTSASLAISGLQSEDEADYYCAAWDDSLNGGVFGGGTKLTVLG | 1.64 |  |  |  |  |  |  |
| antibody 302 (antibody, V domains shown) VH: QVQLVQSGAEVRKPGASVKVSCKVSGYTLSELSMHWVRQAPGKGLEWMGGFDPEDGERMYAQKFQGRVTMTEDTSTDTAYMELSSLRSEDTAIYYCTTDLSYLWSGKLEPDYWYFALWGRGTLVTVSS VL: DIVMTQSPDSLAVSLGERATINCKSSQSVLYSSNNKNYLAWYQQKPGQAPKLLISWASTRESGVPDRFSGSGSGTEFTLTISSLQAEDVAVYYCQQYYGTPLTFGQGTKLEIR |  | 532 | 921 | 571 | 17.4 | 133 | 388 |
| antibody 277 (antibody, V domains shown) VH: QVQLVESGGGVVQPGRSLRLSCAASGFTFSSYAMHWVRQAPGKGLEWVAVISYDGSNTYYADSVKGRFTISRDNSKNTLYLQMNSLRAEDTAVYYCARPYSGSYFNWFDPWGQGTLVTVSS VL: DIVMTQSPDSLAVSLGERATINCKSSQSVLYSSNNKNYLAWYQQKPGQPPKLLTYWASTRESGVPDRFSGSGSGTDFTLTISSLQAEDVAVYYCQQYYSTPLTFGGGTKVEIK |  | 548 | 868 | 507 | 121 | 321 | 483 |
| mAb 1585 (antibody, V domains shown) VH: QVQLVESGGGVVQPGRSLRLSCAASGFTFSRFTLHWVRQAPGKGLEWVAVISYDGSNKYYADSVKGRFTISRDNSKSTLYLQMNSLRAEDTGVYYCARDPSTVTGYFDYWGQGTLVTVSS VL: SYVLTQPPSVSVAPGKTAKISCGGDSIGSKSVHWYQQKPGQAPVLVIYYDNDRPSGIPERFSGSNSGNTATLTISRVEAGDEADYYCQVWDIGVVFGGGTKLTVLG | 85.1 |  |  |  |  |  |  |
| mAb 936 (antibody, V domains shown) VH: EVQLVESGGGLVQPGRSLTLSCAGSGFTFDDYAMHWVRQAPGKGLEWVSGISWNSGSIGYADSVKGRFTISRDNAKNSLYLQMNSLRAEDTALYYCAKDVSYDSSGYYNNAFDIWGQGTMVTVSS VL: DIQLTQSPSFLSASVGDRVTITCRASQGISSYLAWYQQKPGKAPKLLIYAASTLQSGVPSRFSGSGSGTEFTLTISSLQPEDFATYYCQQLYSYPVTFGQGTRLEIKR | 1.9 |  |  |  |  |  |  |
| antibody 287 (antibody, V domains shown) VH: QLQLQESGPGLVKPSETLSLTCTVSGGSISSSSYYWGWIRQPPGKGLEWIGSIFYSGSTYYNPSLKSRVTIFVDTSKNQFSLKLSSVTAADTAVYYCARFDYQVVDLTGFDYWGQGTLVTVSS VL: DIQMTQSPSSLSASVGDRVTITCRASQGIRNDLGWYQQKPGKAPKRLIYAASSLQSGVPSRFSGSGSGTEFTLTIRSLQPEDFATYYCLQYNSYPLTFGGGTKVEIK |  | 712 | 1020 | 573 | 206 | 474 | 548 |
| antibody 261 (antibody, V domains shown) VH: QVQLVESGGGVVQPGRSLRLSCAASGFTFSSYAMHWVRQAPGKGLEWVAVISYDGSNKYYADSVKGRFTISRDNSKNTLYLQMNSLRAEDTAVYYCARDEAYYDILTGYINAPKNYYYYGMDVWGQGTTVTVSS VL: DIQMTQSPSSLSASVGDRVTITCRASQGIRNDLGWYQQKPGKAPKRLIYAASSLQSGVPSRFSGSGSGTEFTLTISSLQPEDFATYYCLQHNSYPFTFGPGTKVDIK |  | 543 | 997 | 620 | 47.4 | 160 | 445 |
| mAb 1037 (antibody, V domains shown) VH: QITLKESGPTLVKPTQTLTLTCTFSGFSLSTSGVGVGWIRQPPGKALEWLALIYWDDDKRYSPSLKSRLTITKDTSKNQVVLTMTNMDPVDTATYYCAHHTITRINDYWGQGTLVTVSS VL: QSALTQPASVSGSPGQSITISCTATSSDVGAYNYVSWYQQHPGKAPKLMIYDVSKRPSGVSNRFSGSKSGNTASLTISGLQAEDEADYYCSSYTSSSTVFGGGTKLTVLG | 7.79 |  |  |  |  |  |  |
| mAb 1495 (antibody, V domains shown) VH: QVQLVESGGGVVQPGRSLRLSCTASGFTFSSYAMHWVRQAPGKGLEWVAVISYDGNNKYYGDSVKGRFTISRDNSKNTLYLQMNSLRAEDTAVYYCAKGADTPHYSGYHFLSVGYYFYGMDVWGQGTTVTVSS VL: DIQMTQSPSSLSASVGDRVTITCRASQSISYYLNWYQQKPGKAPQLLIYAASSLQSGVPSRFSGSRSGTDFTLTISSLQPEDFATYYCQQSYSTPFTFGPGTKVDIKR | 4.8 |  |  |  |  |  |  |
| antibody 286 (antibody, V domains shown) VH: QVHLVESGGGVVQPGKSLRLSCAGSGFIFSDFGMHWVRQSPGKGLEWVAVVSYDGSVTKYSDSFEGRFTISRDNSKNTLYLQMDSLRPDDTAIYYCAKGQGANLLHYWGKGILVTVSS VL: DVVLTQSPLSLPVTLGQPASISCRSSESLVYTDGDTYLHWFHQRPGQSPRRLIYKVSNRDSGVPDRFSGSGSGTDFTLKISRVEAEDVGVYYCMQGTHWPFTFGPGTKVDIK |  | 228 | 228 |  | 9.93 | 64.3 | 48.4 |
| antibody 268 (antibody, V domains shown) VH: QVQLQESGPGLVKPSQTLSLTCTVSGGSISSGSYYWSWIRQPAGKGLEWIGRIYTSGSTNYNPSLKSRVTISVDTSKNQFSLKLSSVTAADTAVYYCARELVGGLLGTIDYWGQGTLVTVSS VL: DIQLTQSPSFLSASVGDRVTITCRASQGISSYLAWYQQKPGKAPKLLIYAASTLQSGVPSRFSGSGSGTEFTLTISSLQPEDFATYYCQQLNSYPYTFGQGTKLEIK |  | 298 |  | 513 | 30.3 | 111 | 0.98 |
| mAb 923 (antibody, V domains shown) VH: EVQLVESGGGVVRPGGSLRLSCAASGFIFDDYDMTWVRQAPGKGLEWVSGISWNGGNTGYADSVKGRFTISRDNAKNSLYLQMNSLRAEDTALYHCAVIMSPIPRYSGYDWAGGAFDIWGQGTMVTVSS VL: SSELTQDPAVSVALGQTVRITCQGDSLRSYYASWYQQKPGQVPILVIYDKNNRPSGIPDRFSGSSSGNTASLTITGAQAEDEADYYCNSRDSSGNAVVFGGGTKLTVLG | 974 |  |  |  |  |  |  |
| mAb 1135 (antibody, V domains shown) VH: EVQLVESGGGLVQPGRSLRLSCAASGLTFEDYAMHWVRQVPGKGLEWVSGISWNSGTIGYADSVKGRFIISRDNAKNSLYLQMRSLRAEDTALYYCAKDVGFGELLYYAFDIWGQGTMVTVSS VL: QSALTQPASVSGSPGQSITISCTGTSSDVGGYNYVSWYQQHPGKAPKLMIYDVSNRPSGVSNRFSGSKSGNTASLTISGLQAEDEADYYCSSYTSSSTVVFGGGTKLTVLG | 2.85 |  |  |  |  |  |  |
| mAb 1036 (antibody, V domains shown) VH: QVQLVQSGAEVKKPGSSVKVSCKASGGTLSSYTISWVRQAPGQGLEWMGRIIPILGIADYAQKFQGRVTITADKSTTTAYMDLSSLGSEDTALYYCASAPKDWSSGFDYYYGMDVWGQGTMVTVSS VL: DIVMTQTPLSLSVTPGQPASISCKSSQSLLNSDGKTYLYWYLQKAGQPPQLLIYEVSNRFSGVPERFSGSGSGTDFTLKISRVEAEDVGVYYCMQSVQLPPYTFGQGTKLEITR | 2.33 |  |  |  |  |  |  |
| mAb 1444 (antibody, V domains shown) VH: QVQLVQSGAEVKKPGASVKVSCKASGYTFTAYYMHWVRQAPGQGLEWMGWINPNSDDTNYAQKFQGRVTMTRDTSISTAYMELSRLRSDDTAVYYCAREEGVFTIGDRYFDLWGRGTLVSVSS VL: QTVVTQEPSFSVSPGGTVTLTCGLSSGSVSTSYYPSWYQQTPGQAPRTLIYNTNTRSSGVPDRFSGSILGNKAALTITGAQADDESDYYCVLYMGSGIWVFGGGTKLTVLG | 4.68 |  |  |  |  |  |  |
| mAb 1538 (antibody, V domains shown) VH: EVQLLESGGGLVQPGGSLRLSCAASGFTFSSYAMSWVRQAPGKGLEWVSGISDSGGSTYYADYVKGRFTISRDNSKDTLYLQMNSLRAEDTAVYYCAKDRGNEYALTHYYYYAMDVWGQGTTVTVSS VL: DIQMTQSPSSLSASVGDRVTITCRASQSISSYLNWYQQKPGKAPKLLIYAAYSLQSGVPSRFSGGGSGTDFTLTISSLQPEDFATYFCQQSYSTPITFGQGTRLEIKR | 2.71 |  |  |  |  |  |  |
| mAb 1149 (antibody, V domains shown) VH: QVQLVQSGAEVKKPGASVKVSCKASGYTFASYDINWVRQATGQGPEWMGWMIPNIGNTGYAQKFQGRVTMTRNTSISTAYMELSSLTSEDTAVYYCARVSRLFNDFGLRHEAPVDFWGQGTRVTVSS VL: QSVLTQPPSVSGAPGQRVTISCTGSSSNIGAGYDVHWYQQLPGTAPKLLIYGYSSRPSGVPDRFSGSKSGTSASLAITGLQAEDEADYYCQSYDSSLSVLFGGGTKLTVLG | 2.67 |  |  |  |  |  |  |
